Article PMC4885069, “Botulinum Neurotoxin Serotype A Recognizes Its Protein Receptor SV2 by a Different Mechanism than Botulinum Neurotoxin B Synaptotagmin” (Toxins, 2016)

How the values were obtained:
[1] = biological target: HC fragment of BoNT serotype B (HCB) (Clostridium botulinum, UniProt P10844 859-1291)
[2] = biological target: HC-fragment of BoNT/A fused to a C-terminal Streptag (HCAS) (Clostridium botulinum, UniProt P0DPI1 871-1296)

B1: GST-rSyt-II 1–61 (domain or fragment, rat, UniProt P29101 1-61, looked up)
chain: MRNIFKRNQEPIVAPATTTATMPLAPAAPADNSTESTGTGESQEDMFAKLKDKFFNEINKI
Q: How did the Kd [1] turn out when B1 was run?
A: 75 nM and 72 nM

Q: And the koff [1]?
A: 0.041 s⁻¹

Q: What about the kon [1] of the same binder?
A: 540000 M⁻¹ s⁻¹

B2: GST-rSV2C 454–579 (luminal domain 4, LD4) (domain or fragment, rat, UniProt Q9Z2I6 454-579, looked up)
chain: FPDVIKHLQSDEYALLTRNVQKDKYANFSINFTMENQVHTGMEYDNGRFLGVKFKSVTFKDSVFKSCTFDDVTSVNTYFKNCTFIDTLFENTDFEPYKFIDSEFQNCSFLHNKTGCQITFDDDYSA
Q: Which Kd [2] does the source give for B2 here?
A: 510 nM

B3: GST-hSV2C 455–579 (domain or fragment, human, UniProt Q496J9 455-579, looked up)
chain: PDVIKPLQSDEYALLTRNVERDKYANFTINFTMENQIHTGMEYDNGRFIGVKFKSVTFKDSVFKSCTFEDVTSVNTYFKNCTFIDTVFDNTDFEPYKFIDSEFKNCSFFHNKTGCQITFDDDYSA
Q: B3 was tested. Which koff [2] did it give?
A: 0.12 s⁻¹

Q: And the kon [2]?
A: 310000 M⁻¹ s⁻¹

“And” between values parts separate entries of the source, which are not always exact repeats. Equal entries are not always repeated.
